Results: article PMC4257069, “Hemerythrins in the microaerophilic bacterium Campylobacter jejuni help protect key iron–sulphur cluster enzymes from oxidative damage” (2013)

Protein sequences, listed by entry. Tags and fused reporters are not part of them. Lines headed by an entry give the natural chain unless they say otherwise; changes in a name come on top.
UniProt Q9PIQ3: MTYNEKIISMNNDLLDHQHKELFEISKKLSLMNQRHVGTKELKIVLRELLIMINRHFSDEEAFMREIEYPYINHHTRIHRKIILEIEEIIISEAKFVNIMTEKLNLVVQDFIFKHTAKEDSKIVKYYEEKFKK

Tests used:
HerA (Cj0241) = HerA (Cj0241) (Campylobacter jejuni, UniProt Q9PIQ3); assay: UV-VIS absorption spectroscopy; conditions: 50 mM azide added to as-isolated (met) di-iron protein; azido-Fe(III) form
HerB (Cj1224) = HerB (Cj1224) (Campylobacter jejuni, UniProt Q0P932); assay: UV-VIS absorption spectroscopy; conditions: 50 mM azide added to as-isolated di-iron protein

Q: What does the source list for `[N-]=[N+]=N`?
A: UV-VIS absorption spectroscopy (HerA (Cj0241)): (met) form of the protein was treated with sodium azide, a characteristic broad absorbance; UV-VIS absorption spectroscopy (HerB (Cj1224)): it was reducible with dithionite and reacted with azide in a similar way
